One assay has as its target Folate receptor alpha (Homo sapiens, UniProt P15328). The conditions noted are these: kb.
The target in the next assay is Folate receptor beta (Homo sapiens, UniProt P14207). The conditions noted are these: raw264.7.

Protein sequences, listed by entry. Tags and fused reporters are not part of them. Residues count along the entry.
UniProt P15328, 25-234 limits assumed: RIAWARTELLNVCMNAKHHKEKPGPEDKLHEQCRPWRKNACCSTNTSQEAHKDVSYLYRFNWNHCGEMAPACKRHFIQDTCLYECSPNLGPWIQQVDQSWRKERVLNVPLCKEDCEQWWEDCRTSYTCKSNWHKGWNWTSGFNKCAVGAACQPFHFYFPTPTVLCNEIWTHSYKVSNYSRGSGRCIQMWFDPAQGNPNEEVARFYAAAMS
UniProt P14207, 17-230 limits assumed: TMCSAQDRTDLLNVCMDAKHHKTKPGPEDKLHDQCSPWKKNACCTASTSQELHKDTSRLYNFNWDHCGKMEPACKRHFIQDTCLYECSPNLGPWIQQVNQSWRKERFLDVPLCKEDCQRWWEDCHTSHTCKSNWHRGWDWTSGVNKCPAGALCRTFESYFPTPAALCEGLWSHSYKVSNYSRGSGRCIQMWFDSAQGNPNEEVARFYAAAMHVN

The structures appear in SMILES notation.

Broadly, the IC50 is the concentration at which inhibition is half-maximal. A higher IC50 goes with a need for much substance. As for `CC1=C[C@H]2O[C@@H]3C[C@H]4OC(=O)/C=C\C=C\C(=O)OCC[C@@H](C)[C@H](OC(=O)OCCSSC[C@H](NC(=O)[C@H](CC(=O)O)NC(=O)[C@H](CC(=O)O)NC(=O)[C@H](CCCNC(=N)N)NC(=O)[C@H](CC(=O)O)NC(=O)CC[C@H](NC(=O)c5ccc(NCc6cnc7nc(N)[nH]c(=O)c7n6)cc5)C(=O)O)C(=O)O)C(=O)OC[C@@]2(CC1)[C@]4(C)[C@]31CO1`, the IC50 against Folate receptor alpha was 6.9 nM; against Folate receptor beta it was 1.5 nM.
